Holding throughout (conditions): in vivo, 216 h
For series [1], the system named is Mus musculus. Nature of the series: Toxicity in mouse B16 cells allografted mouse at 216 mg/kg, ip qd for 9 days. The format is organism-based. Further details: dose 216 mg/kg, route intraperitoneal. In outline: (§1)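 Mice bearing B16 melanoma, dosed ip once daily for 9 days from 24 h after tumor implantation. Toxicity is recorded as the average body weight change at the end of drug treatment.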

For series [2], the system named is Mus musculus. The series can be described thus: Toxicity in mouse B16 cells allografted mouse at 130 mg/kg, ip qd for 9 days. It is filed as organism-based. Details: dose 130 mg/kg, route intraperitoneal. In outline:
as §1

In series [3] the test system is Mus musculus. Nature of the series: Toxicity in mouse B16 cells allografted mouse at 77.8 mg/kg, ip qd for 9 days.

Regarding `NC(=O)c1nc[nH]c1/N=N/N(CCCl)CCCl`, the values for the Activity with Mus musculus [1], in the series with Mus musculus [2] and with Mus musculus [3] were -3.7%, -2.9% and -2.3%, respectively.

The values are drawn from ChEMBL document CHEMBL3244044, “Synthesis and antitumor activity of halogen-substituted 4-(3,3-dimethyl-1-triazeno)quinolines” (J Med Chem, 1978).
